Results on 6 substances are retold here after publication PMC3504009, “Autoproteolysis and Intramolecular Dissociation of Yersinia YscU Precedes Secretion of Its C-Terminal Polypeptide YscUCC” (2012).

For experiment [1], the target named is YscUCC-His6 with A268F, from GST-A268F-His6, Y. pseudotuberculosis, P69987 264-354.
Experiment [2] addresses YscUCN, N-terminal cytoplasmic polypeptide of the cleaved cytosolic domain YscUC of YscU, Y. pseudotuberculosis, P69987 211-263.
Experiment [3] deals with YscUCC of the YscUC suppressor mutant A268F, Y. pseudotuberculosis, P69987 264-354.
Experiment [4] concerns the target YscUCC of the YscUC variant H324A, Y. pseudotuberculosis, P69987 264-354.

Regarding “GST-YscUCN, the GST-carrying N-terminal fragment of GST-YscUC-His6 A268F”, the result in experiment [1] is on record as “binds”.

Substance “YscUCC of the YscUC suppressor mutant A268F” had a dissociation lifetime τ diss at 37°C in experiment [2] of 70.1 min. In experiment [2], “YscUCC of the YscUC suppressor mutant V292T” displayed a dissociation lifetime τ diss at 37°C of 60.8 min. The substance “YscUCC of the YscUC suppressor mutant Y287G” returned a dissociation lifetime τ diss at 37°C in experiment [2] of 138 min. For the substance “YscUCN, N-terminal cytoplasmic polypeptide of the cleaved cytosolic domain YscUC of YscU A268F”, the result in experiment [3] is listed as “binds”. “YscUCN, N-terminal cytoplasmic polypeptide of the cleaved cytosolic domain YscUC of YscU H324A”: the result in experiment [4] is listed as “binds”.
